Reference: ChEMBL document CHEMBL1155193, “Acyloxymethyl esterification of nodularin-R and microcystin-LA produces inactive protoxins that become reactivated and produce apoptosis inside intact cells” (J Med Chem, 2009)

System: Hepatocyte
Experiment: Cytotoxicity against Wistar rat hepatocytes harboring transporter Oatp1b2 after 90 mins by differential interference contrast microscopy

Row | Structure (SMILES) | CC50
1 | C/C=C1/C(=O)N[C@@H](C(=O)O)[C@H](C)C(=O)N[C@@H](CCCNC(=N)N)C(=O)N[C@@H](/C=C/C(C)=C/[C@H](C)[C@H](Cc2ccccc2)OC)[C@H](C)C(=O)N[C@@H](C(=O)O)CCC(=O)N1C [NODULARIN] | 90 nM
2 | C=C1C(=O)N[C@H](C)C(=O)N[C@@H](CC(C)C)C(=O)N[C@@H](C(=O)O)[C@H](C)C(=O)N[C@@H](CCCNC(=N)N)C(=O)N[C@@H](/C=C/C(C)=C/[C@H](C)[C@H](Cc2ccccc2)OC)[C@H](C)C(=O)N[C@@H](C(=O)O)CCC(=O)N1C [MICROCYSTIN-LR] | 270 nM
